Reference: BindingDB's records for 22299578 (Università degli Studi di Firenze, 2013)

Amino acid sequences for entries named in this document (tags omitted). Residues count along the entry.
UniProt J0J440, 1-247: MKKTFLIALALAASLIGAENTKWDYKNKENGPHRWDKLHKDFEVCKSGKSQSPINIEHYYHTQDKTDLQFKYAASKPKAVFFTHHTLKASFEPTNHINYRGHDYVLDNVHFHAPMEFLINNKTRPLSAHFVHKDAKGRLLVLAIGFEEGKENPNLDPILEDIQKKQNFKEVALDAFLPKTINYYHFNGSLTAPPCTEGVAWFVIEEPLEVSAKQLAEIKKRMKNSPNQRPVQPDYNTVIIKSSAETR
UniProt Q08IJ2, 1-221: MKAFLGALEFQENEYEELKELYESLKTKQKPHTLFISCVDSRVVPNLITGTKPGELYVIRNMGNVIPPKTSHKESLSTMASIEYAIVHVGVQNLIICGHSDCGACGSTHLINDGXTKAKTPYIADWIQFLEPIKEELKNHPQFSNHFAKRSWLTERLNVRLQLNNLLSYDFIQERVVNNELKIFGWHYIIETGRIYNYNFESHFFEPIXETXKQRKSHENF

How the values were obtained:
Alpha-carbonic anhydrase = Alpha-carbonic anhydrase (Helicobacter pylori, UniProt J0J440); assay: CA Inhibition Assay; conditions: pH 7.5
Carbonic anhydrase = Carbonic anhydrase (Helicobacter pylori, UniProt Q08IJ2); assay: CA Inhibition Assay; conditions: pH 7.5

SMILES | pKi (Alpha-carbonic anhydrase) | pKi (Carbonic anhydrase)
N#CO | 3.22 | 3.43
O=[As](O)(O)c1ccccc1 | 3.36 | 4.04
[O]=[V]([OH])([OH])[O][V](=[O])([OH])[OH] | 3.57 | 3.74

pKi: −log10 of the molar value.
